Test results published in ChEMBL document CHEMBL1128214, “Structure-based design of sulfonamide-substituted non-peptidic HIV protease inhibitors” (J Med Chem, 1995).

Molecular target: Human immunodeficiency virus type 1 protease (Human immunodeficiency virus 1, UniProt Q72874)
Experiment: Inhibitory activity against HIV-1 protease

Ki: 3 nM
Compound: O=c1c2c(oc(O)c1C(c1cccc(NS(=O)(=O)c3ccccc3)c1)C1CC1)CCCCCC2 (stereo unspecified)
